Measured values: patent US11857560B2, “Pharmaceutical compositions comprising substituted nucleotides and nucleosides for treating viral infections” (priority 2013, dated 2024)

Target: NS5B-δ21 from HCV GT-1b Con-1 (Hepatitis C virus genotype 1b (isolate Con1) (HCV), UniProt Q9WMX2)
Assay: HCV NS5B pol assay

CC1(O)C(O)[C@@H](COP(=O)(O)OP(=O)(O)OP(=O)(O)O)O[C@H]1n1ccc(=O)[nH]c1=[Se] (stereo partly drawn) [ENUC-02059]
pIC50: 4.30
IC25 (32P-GTP): 6.82 µM
IC95 (32P-GTP): >100 µM

pIC50: −log10 of the molar value.
